# Test results reported in paper PMC11794977, “Inhibitory Potential and Binding Thermodynamics of Scyllatoxin‐Based BH3 Domain Mimetics Targeting Repressor BCL2 Proteins” (Journal of Molecular Recognition, 2025).
# Where a SMILES comes first, the peptide text is derived from it.
# Assay: Wavelength‐dependent CD spectropolarimetry, percent helicity
# Type: physicochemical
# Details: 10 μM peptide in binding buffer (50 mM Tris, 100 mM NaCl, pH 8.0), 20°C, calculated from MRE at 222 nm
smiles,measurement,value
"CC[C@H](NC(=O)[C@H](CO)NC(=O)CNC(C)=O)C(=O)N[C@@H](CCCCN)C(=O)N[C@@H](CCCCN)C(=O)N[C@@H](CC(C)C)C(=O)N[C@@H](CO)C(=O)N[C@H]1CSSC[C@@H](C(=O)N[C@@H](CCC(=O)O)C(=O)N[C@@H](CC)C(=O)N[C@H](C(=O)N[C@@H](CCCCN)C(=O)N[C@@H](Cc2c[nH]cn2)C(N)=O)C(C)C)NC(=O)[C@H](CCCCN)NC(=O)[C@H](CC(=O)O)NC(=O)CNC(=O)[C@H]([C@@H](C)CC)NC(=O)[C@H](CC)NC(=O)[C@H](CCCCN)NC(=O)CNC(=O)[C@H](CC(C)C)NC(=O)[C@H](CC(C)C)NC(=O)CNC(=O)[C@H](CC(=O)O)NC(=O)CNC(=O)[C@H]([C@@H](C)CC)NC(=O)[C@H](CC)NC(=O)[C@H](CCCCN)NC(=O)[C@H](CC(C)C)NC(=O)[C@H](CC)NC1=O [^AcScTx‐Bax^ΔΔ,8–26] (HELM PEPTIDE1{[ac].G.S.[Abu].K.K.L.S.C.[Abu].L.K.[Abu].I.G.D.G.L.L.G.K.[Abu].I.G.D.K.C.E.[Abu].V.K.H.[am]}$PEPTIDE1,PEPTIDE1,9:R3-27:R3$$$V2.0)",percent helicity,39.3%
CC[C@H](NC(=O)[C@H](CO)NC(=O)CNC(C)=O)C(=O)N[C@@H](CCCCN)C(=O)N[C@@H](CCCCN)C(=O)N[C@@H](CC(C)C)C(=O)N[C@@H](CO)C(=O)N[C@@H](CC)C(=O)N[C@@H](CC)C(=O)N[C@@H](CC(C)C)C(=O)N[C@@H](CCCCN)C(=O)N[C@@H](CC)C(=O)N[C@H](C(=O)NCC(=O)N[C@@H](CC(=O)O)C(=O)NCC(=O)N[C@@H](CC(C)C)C(=O)N[C@@H](CC(C)C)C(=O)NCC(=O)N[C@@H](CCCCN)C(=O)N[C@@H](CC)C(=O)N[C@H](C(=O)NCC(=O)N[C@@H](CC(=O)O)C(=O)N[C@@H](CCCCN)C(=O)N[C@@H](CC)C(=O)N[C@@H](CCC(=O)O)C(=O)N[C@@H](CC)C(=O)N[C@H](C(=O)N[C@@H](CCCCN)C(=O)N[C@@H](Cc1c[nH]cn1)C(N)=O)C(C)C)[C@@H](C)CC)[C@@H](C)CC [^AcScTx‐Bax^ΔΔΔ] (HELM PEPTIDE1{[ac].G.S.[Abu].K.K.L.S.[Abu].[Abu].L.K.[Abu].I.G.D.G.L.L.G.K.[Abu].I.G.D.K.[Abu].E.[Abu].V.K.H.[am]}$$$$V2.0),percent helicity,13.1%
